According to PubChem BioAssay AID1950 (The Scripps Research Institute Molecular Screening Center, 2009):
The entries are a selection whose mix differs from that of the whole data set. The source made the active and inactive calls. Rule as the data show it: active = inhibition above about 28%; inactive = the rest.

Each compound was assayed on EBNA-1 (Epstein-Barr virus nuclear antigen 1), Human herpesvirus 4 (assay: EBNA-1 DNA-binding inhibitors, primary screen, biochemical, fluorescence polarization (AID 1950)). Details: at 14.8 µM, stronger effect = higher value.

Row | SMILES | inhibition
1 | CC1(CBr)Cn2c(nc3ccccc3c2=O)S1 (stereo unspecified) | inactive: -9.36%
2 | O=[As](O)(c1ccccc1Br)c1ccccc1Br | inactive: -7.2%
3 | CN(C(=O)Cc1ccc(Cl)c(Cl)c1)[C@@H]1CCCC[C@H]1N1CCCC1 | inactive: 7.73%
4 | CC(C)/C=N\N=C(\N)N[N+](=O)[O-] | inactive: -12.1%
5 | COc1ccccc1CNC(=O)COC(=O)C(O)(c1ccccc1)c1ccccc1 | inactive: -3.83%
6 | CC(C)(C)C(=O)NC(Sc1ncccn1)C(Cl)(Cl)Cl (stereo unspecified) | inactive: -2.16%
7 | Clc1n[nH]nc1-c1nn[nH][15n]1 | inactive: 2%
8 | CN(CCCl)Cc1cc(Cl)c(NC2=NCCN2)c(Cl)c1 | inactive: -3.94%
9 | CCOP(=O)(Nc1ccc(C)cn1)OCC | inactive: -1.13%
10 | CCOP(=O)(NC(=NC(C)c1ccccc1)NC(C)c1ccccc1)OCC (stereo unspecified) | inactive: -8.2%
11 | CCC1=CC2Cc3nc4ccc(Cl)cc4c(N)c3C(C1)C2 (stereo unspecified) | inactive: 4.02%
12 | O=P1(Nc2ccccn2)COc2ccccc2OC1 | inactive: -16.8%
13 | O=P1(Nc2ccc(Br)cn2)COc2ccccc2OC1 | inactive: -7.06%
14 | Cc1ccc(OCC(=O)OC2CN3CCC2CC3)cc1 (stereo unspecified) | inactive: 0.94%
15 | O=[As](O)(c1cccs1)c1cccs1 | inactive: -18.7%
16 | Nc1cccc([As](=O)(O)c2ccccc2)c1 | inactive: -4.9%
17 | O=P1(Nc2ncccn2)COc2ccccc2OC1 | inactive: 2.16%
18 | O=C(/C=C/c1ccccc1)OC1CN2CCC1CC2 (stereo unspecified) | inactive: -2.49%
19 | CN(C)C1(CNC(=O)c2ccc(S(C)(=O)=O)cc2)CCCCC1 | inactive: -2.53%
20 | Cc1ccc(C(=O)OC2CN3CCC2CC3)cc1 (stereo unspecified) | inactive: -9.17%
21 | CC1CCC(C(C)C)C(OP(=O)(Nc2ccccn2)c2ccccc2)C1 (stereo unspecified) | inactive: 3.42%
22 | Cc1nn(-c2ccccc2)c2c1P(=O)(N1CCOCC1)N(C)C(c1ccccc1)=N2 (stereo unspecified) | inactive: 2.12%
23 | CN(C(=O)Cc1ccc(Cl)c(Cl)c1)[C@H]1CC[C@@]2(CCCO2)C[C@@H]1N1CCCC1 | inactive: -0.71%
24 | CN(C)C(=O)c1cc([N+](=O)[O-])cc2c1-c1c(cc([N+](=O)[O-])cc1[N+](=O)[O-])C2=O | inactive: -9.48%
25 | O=[N+]([O-])c1ccc2c(c1)nnn2O | inactive: 13.5%
26 | CN(C(=O)Cc1ccccc1)[C@@H]1CC[C@]2(CCCO2)C[C@H]1N1CCCC1 | inactive: -5.64%

Row | SMILES | inhibition
27 | CCOP1(=S)c2c(C)nn(CCC#N)c2N=C(c2ccc(F)cc2)N1C (stereo unspecified) | inactive: 8.24%
28 | N#CCCN(C(=O)COC(=O)C(O)(c1ccccc1)c1ccccc1)c1ccc(F)cc1 | inactive: 2.7%
29 | NC(=O)Nc1ccc([As](=O)(O)O)cc1 | inactive: -4.71%
30 | O=C(O)COc1ccc([As](=O)(O)O)cc1[N+](=O)[O-] | inactive: -3.32%
31 | Nc1ccccc1[As](=O)(O)c1ccccc1 | inactive: -8.69%
32 | CS(=O)(=O)c1cc([N+](=O)[O-])c2no[n+]([O-])c2c1 | inactive: 4.25%
33 | O=P(Nc1nccs1)(c1ccccc1)c1nc2ccccc2s1 (stereo unspecified) | inactive: 7.14%
34 | O=P(Nc1nccs1)(Oc1ccccc1)Oc1ccccc1 | inactive: 2.66%
35 | CCOP1(=S)c2c(C)nn(CCC#N)c2N=C(c2ccccc2F)N1C (stereo unspecified) | inactive: -1.36%
36 | CCOP(=O)(Nc1cccc2ccccc12)OCC | inactive: 5.49%
37 | COc1cc(C2NCCC3(OCCO3)C2(C)C)cc(OC)c1OC (stereo unspecified) | inactive: -0.19%
38 | CCCOP(=S)(Nc1nc(N)cc(=O)[nH]1)OCCC | inactive: -1.12%
39 | Cc1ccc(NCCc2c([N+](=O)[O-])cc([N+](=O)[O-])cc2[N+](=O)[O-])cc1 | inactive: -3.01%
40 | Nc1cccc2c([As](=O)(O)O)cccc12 | inactive: 7.21%
41 | O=[As](O)(c1cccc(O)c1)c1cccc(O)c1 | inactive: 7.61%
42 | Cc1cccc(OCC(=O)OC2CN3CCC2CC3)c1 (stereo unspecified) | inactive: 2.84%
43 | CS(=O)(=O)c1ccc(Cl)c(NC(=O)COC(=O)C(O)(c2ccccc2)c2ccccc2)c1 | inactive: -5.75%
44 | COc1cc(C(=O)NCC2(N3CCOCC3)CCCCC2)cc(Cl)c1OC(C)C | inactive: -4.96%
45 | O=[As](O)(O)c1cccnc1 | inactive: 7.58%
46 | O=C(OC1CN2CCC1CC2)c1ccc(Cl)cc1 (stereo unspecified) | inactive: 2.75%
47 | COc1ccc(N/C(=N/P(=O)(N2CCOCC2)N2CCOCC2)N2CCOCC2)cc1 | inactive: 6.56%
48 | COc1cc(I)ccc1[As](=O)(O)O | inactive: -0.03%
49 | COc1ccc2nc(NP(=O)(c3ccccc3)c3ccccc3)sc2c1 | inactive: -8.95%
50 | Cc1cc(=O)[nH]c(N[N+](=O)[O-])n1 | inactive: 6.53%
51 | O=C(OC1CN2CCC1CC2)C12CC3CC(CC(C3)C1)C2 (stereo unspecified) | inactive: 4.8%
52 | Cc1c2c(nc3ccccc13)SC(C(Cl)Cl)C2 (stereo unspecified) | inactive: 3.56%

Row | SMILES | inhibition
53 | O=[N+]([O-])c1cc([N+](=O)[O-])c(-c2ccn[nH]2)s1 | inactive: -0.57%
54 | CCN(CC)C(=S)SC(NC=O)C(Cl)(Cl)Cl (stereo unspecified) | inactive: -6.85%
55 | CC(C)NC(=O)NP(=O)(Oc1ccccc1)Oc1ccccc1 | inactive: 12.1%
56 | CC(C)c1ccc(OP(=O)(Nc2ccccn2)Oc2ccccc2F)cc1 (stereo unspecified) | inactive: 5.18%
57 | ClCCSc1nnc(-c2cccnc2)o1 | inactive: 5.11%
58 | Cc1ccc2nc3c(c(C)c2c1)CC(C(Cl)Cl)S3 (stereo unspecified) | inactive: -7.46%
59 | Cc1ccc(OP(=O)(Nc2ccc([N+](=O)[O-])cn2)Oc2ccc(C)cc2)cc1 | inactive: -1.61%
60 | O=[As](O)(c1ccc(O)cc1)c1ccccc1O | inactive: -15.4%
61 | C[As](=O)(O)c1cccc(C(=O)O)c1 | inactive: -6.36%
62 | Cc1cc(SC(NC=O)C(Cl)(Cl)Cl)ncn1 (stereo unspecified) | inactive: -10.1%
63 | O=P(Nc1ccccn1)(c1cccc2ccccc12)c1cccc2ccccc12 | inactive: -1.77%
64 | CCOC(=O)Nc1cccc([As](=O)(O)O)c1 | inactive: 7.6%
65 | Cc1cc(SC(NC(=O)c2ccccc2)C(Cl)(Cl)Cl)nc(C(C)C)n1 (stereo unspecified) | inactive: 2.64%
66 | CCOC(=O)Nc1ccc([As](=O)(O)O)c(O)c1 | inactive: -13.2%
67 | CCC(C)N(CC(C)C)C(=S)SC(NC(C)=O)C(Cl)(Cl)Cl (stereo unspecified) | inactive: 5.9%
68 | CCOC(=O)c1ccc(NC(=O)C(C)(CCl)SC)cc1 (stereo unspecified) | inactive: -0.12%
69 | O=C(OC1CN2CCC1CC2)c1cccc([N+](=O)[O-])c1 (stereo unspecified) | inactive: -3.56%
70 | O=C(Nc1ccncc1[N+](=O)[O-])c1ccc([N+](=O)[O-])cc1[N+](=O)[O-] | inactive: -4.87%
71 | O=C(COc1ccccc1)OC1CN2CCC1CC2 (stereo unspecified) | inactive: -2.52%
72 | COP1(=S)c2c(C)nn(CCC#N)c2N=C(c2ccc(F)cc2)N1C (stereo unspecified) | inactive: -3.3%
73 | CN(C)C(=O)OCCc1n(C)cc[n+]1C | inactive: -5.9%
74 | CC(C)=N/N=C(\N)N[N+](=O)[O-] | inactive: -1.13%
75 | CC1CCN(C(=O)Oc2c(Cl)cc(Cl)c3cccnc23)CC1 | inactive: 1.92%
76 | C[N+]1=C2C=CC=CC=C2SC12C([N+](=O)[O-])=CC([N+](=O)[O-])=C[C-]2[N+](=O)[O-] (stereo unspecified) | inactive: -1.47%
77 | Nc1ccc([As](=O)(O)c2ccc(N)cc2)cc1 | inactive: -1.36%
78 | CCN(/C(=N/P(=O)(N1CCOCC1)N1CCOCC1)N1CCOCC1)c1ccc(OC)cc1 | inactive: -3.02%

Row | SMILES | inhibition
79 | CC(=O)N1C2C3N(C(C)=O)C1C1N(C(C)=O)C(C(N1C(C)=O)N3C(C)=O)N2C(C)=O | inactive: 0.88%
80 | O=[N+]([O-])c1cccc2n[nH]nc12 | inactive: 3.86%
81 | O=[N+]([O-])c1cc([N+](=O)[O-])c(CCNc2ccccc2)c([N+](=O)[O-])c1 | inactive: -8.51%
82 | CCc1nc2c(n1)c1c(non1O)c1c2no[n+]1[O-] | inactive: 3.57%
83 | Cc1ccc(NP(=O)(Oc2ccccc2)Oc2ccccc2)nc1 | inactive: -19.1%
84 | COc1ccc(C2=NCC(CBr)S2)cc1 (stereo unspecified) | inactive: 5.57%
85 | O=[N+]([O-])c1cccc(NC2=NCC(CBr)S2)c1 (stereo unspecified) | inactive: -1.42%
86 | CC(C)(C)C(=O)NC(Sc1ccncn1)C(Cl)(Cl)Cl (stereo unspecified) | inactive: 0.82%
87 | O=[N+]([O-])c1ncn(CCn2ncnc2[N+](=O)[O-])n1 | inactive: -1.34%
88 | O=C(Nc1cc([As](=O)(O)O)ccc1O)c1ccccc1 | inactive: -12.9%
89 | CCN(N=Nc1nonc1N)c1nonc1N | inactive: 5.81%
90 | O=[N+]([O-])c1cc([N+](=O)[O-])c(CCN2CCOCC2)c([N+](=O)[O-])c1 | inactive: -3.63%
91 | CN(C(=O)Cc1ccc(Cl)c(Cl)c1)[C@H]1CCCC[C@@H]1N1CCCC1 | inactive: 0.08%
92 | Cc1ccc(NP(=O)(Oc2ccccc2F)Oc2ccccc2F)nc1 | inactive: -3.05%
93 | CCOP(=O)(Nc1ccccc1)OCC | inactive: 6.2%
94 | Cc1cc(SC(NC(=O)c2ccc(F)cc2)C(Cl)(Cl)Cl)ncn1 (stereo unspecified) | inactive: 5.39%
95 | O=C(O)c1ccccc1[As](=O)(O)O | inactive: -2.57%
96 | CC(=O)Nc1ccc([As](=O)(O)O)cc1 | inactive: -0.52%
97 | O=P(Nc1nc2ccc(Cl)cc2s1)(c1ccccc1)c1ccccc1 | inactive: -4.78%
98 | CC(C)CC(=O)NC(Sc1ccc(Cl)cc1)C(Cl)(Cl)Cl (stereo unspecified) | inactive: -8.42%
99 | Nc1cc(N)c2nonc2c1[N+](=O)[O-] | inactive: 3.63%
100 | Cc1c2non([O-])c-2c(C)[n+](=O)[n+]1[O-] | inactive: -6.82%
101 | O=C(NC(Sc1ccncn1)C(Cl)(Cl)Cl)c1ccccc1 (stereo unspecified) | inactive: -2.11%
